Measured values from several laboratories, pooled; numbers as filed in NIAID ChemDB.

Common to all: tests in culture; species: HIV-1; read by: p24 / ELISA; measure: EC50

Two numbers with a dash give a range or band. Blank or dashed fields: not listed here. ECn is the concentration giving n% inhibition of infection, replication or growth. Conditions beyond the fields shown may differ between rows.

compound | cell line | changes | setting | strain or isolate | result
Cn1c2ccccc2c(=O)c2ccccc21 | OM-10.1 |  |  | IIIB | 4.9 µg/mL
O=C(O)CCNC(=O)CNC(=O)CNC(=O)CNC(=O)c1cc(C(=O)c2ccc3ccccc3c2)n2ccc(C(=O)c3ccccc3)cc12 | H9 |  |  |  | 40.7 µM
CC(C)[C@H](CN[C@]12CC[C@@H](C3(C)CC3)[C@@H]1[C@H]1CC[C@@H]3[C@@]4(C)CC[C@H](OC(=O)[C@H]5C[C@@H](C(=O)O)C5(C)C)C(C)(C)[C@@H]4CC[C@@]3(C)[C@]1(C)CC2)N1CCS(=O)(=O)CC1 | MT-2 |  |  | 92HT599 | >0.02 µM
COC(=O)c1cc2c(c(OC)c1-c1ccc(N(C)C)cc1)OCO2 | C8166 |  |  | IIIB | 0.16 µg/mL
Cn1c2ccccc2c(=O)c2c(O)cccc21 | U-937 |  |  | IIIB | 7 µg/mL
CCCCCCCCCCCCCCCCCCOCCOP(=O)(O)CO[C@H](CO)Cn1cnc2c(=O)[nH]c(N)nc21 | PBMC | M41L D67N K70R T215Y K219Q |  | NRTI-MDR | 0.005 µM
COCCOCC(=O)O[C@H](C)[C@@H](CN[C@]12CC[C@@H](C3(C)CC3)[C@@H]1[C@H]1CC[C@@H]3[C@@]4(C)CC[C@H](OC(=O)[C@H]5C[C@@H](C(=O)O)C5(C)C)C(C)(C)[C@@H]4CC[C@@]3(C)[C@]1(C)CC2)N1CCS(=O)(=O)CC1 | MT-2 |  |  | 92HT599 | <0.01 µM
CN(c1cccc2cccnc12)S(=O)(=O)c1ccc(F)cc1F | H9 |  | pseudotyped | NL4-3 | 1.18 µM
CCC1=C(C(=O)c2ccccc2)C(c2cccc(O)c2)NC(=O)N1 | CEM |  |  |  | >5 µM
CCOC(=O)c1cc(C(=O)c2ccc3ccccc3c2)n2ccc(C(=O)c3ccncc3)cc12 | H9 |  |  |  | 11 µM
Cc1cn([C@H]2C[C@H](N=[N+]=[N-])[C@@H](CO)O2)c(=O)[nH]c1=O | PBMC |  |  | 89.6 | 0.01201 µM
CC(C)C1=C2[C@H]3CC[C@@H]4[C@@]5(C)CC[C@H](OC(=O)[C@H]6C[C@@H](C(=O)O)C6(C)C)C(C)(C)[C@@H]5CC[C@@]4(C)[C@]3(C)CC[C@@]2(CCNC(C)(C)c2ccccc2)CC1=O | MT-2 |  |  | 92HT599 | <1 µM
COc1ccc2[nH]c(=O)c(CN(Cc3cccnc3)S(=O)(=O)c3cccc4nsnc34)cc2c1 | CEM |  |  | IIIB | 0.0199 µM
CC1=C(C(=O)OCc2ccccc2)C(/C=C/c2ccccc2)NC(=O)N1 | HEK293T |  |  |  | >100 µM
COc1cc2c(OC3OC(C)C(OC4OC(CO)C(O)C(O)C4O)C(O)C3OC(C)=O)c3c(c(-c4ccc5c(c4)OCO5)c2cc1OC)C(=O)OC3 | PBMC |  |  | SF162 | 0.014 µM
CC(C)C1=C2[C@H]3CC[C@@H]4[C@@]5(C)CC[C@H](OC(=O)[C@H]6C[C@@H](C(=O)O)C6(C)C)C(C)(C)[C@@H]5CC[C@@]4(C)[C@]3(C)CC[C@@]2(NC(=O)C(C)(C)NC(=O)c2ccc(CN3CCC(O)CC3)cc2)CC1=O | MT-2 |  |  | 92HT599 | <0.003 µM
O=S(=O)(c1cccc2cnccc12)N1CCNCC1 | U-937 |  |  | IIIB | >10.5 µg/mL
COP(=O)(c1cc(C)cc(CCC#N)c1)c1c(C(N)=O)[nH]c2ccc(Cl)c(F)c12 | MT-4 |  |  | NL4-3 | 0.002 µM
O=c1c(CCc2ccncc2)c(-c2ccc(C(F)(F)F)cc2)[nH]n1-c1nc2ccccc2[nH]1 | PBMC |  |  | NL4-3 | 0.001 µM
CC(C)OC(=O)OCOP(=O)(CO[C@H](C)Cn1cnc2c(N)ncnc21)OCOC(=O)OC(C)C | C8166 | V82F/184V |  | RF | 0.07534 µM
CC(C)c1c(Cc2ccccc2)n(COCc2ccccc2)c(=O)[nH]c1=O | TZM-bl |  |  | SF33 | 0.022 µM
CCCCCCCCCCCCCCCCCCOCCOP(=O)(O)CO[C@H](CO)Cn1cnc2c(N)nc(N)nc21 | MT-2 |  |  | LAI | 0.001 µM
CC(C)C1=C2[C@H]3CC[C@@H]4[C@@]5(C)CC[C@H](OC(=O)[C@H]6C[C@@H](C(=O)O)C6(C)C)C(C)(C)[C@@H]5CC[C@@]4(C)[C@]3(C)CC[C@@]2(NC(=O)C(C)(C)NC(=O)c2ccc(N3CCC(O)CC3)cc2)CC1=O | MT-2 |  |  | 92HT599 | <0.003 µM
COc1cc(O)c2c(=O)c3ccccc3n(C)c2c1 | OM-10.1 |  |  | IIIB | >0.8 µg/mL
COc1cc(C2(C(F)(F)F)N=N2)ccc1C(=O)NCCOCCOCCNC(=O)c1cc(C(=O)c2ccc3ccccc3c2)n2ccc(C(=O)c3ccccc3)cc12 | H9 |  |  |  | 14.9 µM
N.O=S(=O)(NCc1ccccc1)c1ccc(F)cc1F | H9 |  | pseudotyped | NL4-3 | >20 µM
CCC1=C(C(=O)OCC2CCCCC2)C(c2ccccc2Cl)NC(=O)N1 | CEM |  |  |  | >5 µM
CC(C)C1=C2[C@H]3CC[C@@H]4[C@@]5(C)CC[C@H](OC(=O)[C@H]6C[C@@H](C(=O)O)C6(C)C)C(C)(C)[C@@H]5CC[C@@]4(C)[C@]3(C)CC[C@@]2(NC(=O)C(C)(C)NC(=O)c2ccc(O[C@H]3CCOC3)cc2)CC1=O | MT-2 |  |  | 92HT599 | <0.003 µM
CCC1=C(C(=O)OCC2CCCCC2)[C@H](c2ccc(OC(=O)c3ccccc3)c(Cl)c2)NC(=O)N1 | CEM |  |  |  | ≤1 µM
Cc1ccnc2c1NC(=O)c1cccnc1N2C1CC1 | PBMC |  |  | 1617-1 | 0.156 µM
CCC1=C(C(=O)OCC2CCCCC2)C(c2cccc(Br)c2)NC(=O)N1 | CEM |  |  |  | ≤1 µM
CC(C)C1=C2[C@H]3CC[C@@H]4[C@@]5(C)CC[C@H](OC(=O)[C@H]6C[C@@H](C(=O)O)C6(C)C)C(C)(C)[C@@H]5CC[C@@]4(C)[C@]3(C)CC[C@@]2([C@@H](O)CN(CCN(C)C)Cc2nccs2)CC1=O | MT-2 |  |  | 92HT599 | <1 µM
Cn1c2ccccc2c(=O)c2c(O)cccc21 | OM-10.1 |  |  | IIIB | 2 µg/mL
O=S(=O)(Nc1cccc2cccnc12)c1ccc(Cl)cc1Cl | H9 |  | pseudotyped | NL4-3 | >50 µM
CCC1=C(c2ncc(C3CCCCC3)o2)C(c2cccc(O)c2)NC(=O)N1 | CEM |  |  |  | >5 µM
C[C@@H](CN[C@]12CC[C@@H](C3(C)CC3)[C@@H]1[C@H]1CC[C@@H]3[C@@]4(C)CC[C@H](OC(=O)[C@H]5C[C@@H](C(=O)O)C5(C)C)C(C)(C)[C@@H]4CC[C@@]3(C)[C@]1(C)CC2)N1CCS(=O)(=O)CC1 | MT-4 |  |  | NL4-3 | <0.01 µM
COc1cccc2[nH]c3ccccc3c(=O)c12 | OM-10.1 |  |  | IIIB | >17 µg/mL
CCOC(=O)c1cc(C(=O)c2ccc3ccccc3c2)n2ccc(C(=O)c3ccccc3)cc12 | H9 |  |  |  | 36.1 µM
CC(C)C1=C2[C@H]3CC[C@@H]4[C@@]5(C)CC[C@H](OC(=O)[C@H]6C[C@@H](C(=O)O)C6(C)C)C(C)(C)[C@@H]5CC[C@@]4(C)[C@]3(C)CC[C@@]2(NC(=O)C(C)(C)NC(=O)c2ccc(Cl)cc2O[C@H]2CCOC2)CC1=O | MT-2 |  |  | 92HT599 | 0.003–0.01 µM
COc1cc(OC)c2c(=O)c3ccccc3n(C)c2c1 | OM-10.1 |  |  | IIIB | 3.2 µg/mL
CC1=C(C(=O)OCc2ccccc2)C(c2cccs2)NC(=O)N1 | HEK293T |  |  |  | >100 µM
Cc1noc(C)c1-c1ccc2c(c1)N(c1cc(N)c(F)cc1F)CCC2=O | PBMC |  |  | NL4-3 | 0.007 µM
O=c1c(CCc2ccc(F)cc2)c(C2CCC2)[nH]n1-c1nc2ccccc2[nH]1 | PBMC |  |  | NL4-3 | <0.01 µM
O=C1NC(CCO)=C(C(=O)OCC2CCCCC2)C(c2cccc(O)c2)N1 | CEM |  |  |  | >5 µM
CC(C)C1=C2[C@H]3CC[C@@H]4[C@@]5(C)CC[C@H](OC(=O)[C@H]6C[C@@H](C(=O)O)C6(C)C)C(C)(C)[C@@H]5CC[C@@]4(C)[C@]3(C)CC[C@@]2([C@@H](O)CNC(=O)c2ccc(S(C)(=O)=O)cc2)CC1=O | MT-2 |  |  | 92HT599 | <1 µM
C[C@@H](O)[C@@H](CN[C@]12CC[C@@H](C3(C)CC3)[C@@H]1[C@H]1CC[C@@H]3[C@@]4(C)CC[C@H](OC(=O)[C@H]5C[C@@H](C(=O)O)C5(C)C)C(C)(C)[C@@H]4CC[C@@]3(C)[C@]1(C)CC2)N1CCS(=O)(=O)CC1 | MT-2 |  |  | 92HT599 | <0.01 µM
CCCCCCCCCCCCCCCCCCOCCOP(=O)(O)CO[C@H](CO)Cn1cc(C)c(=O)[nH]c1=O | MT-2 |  |  | LAI | >10 µM
Cc1ccc(C(=O)NC[C@H](O)[C@@]23CC[C@]4(C)[C@H](CC[C@@H]5[C@@]6(C)CC[C@H](OC(=O)[C@H]7C[C@@H](C(=O)O)C7(C)C)C(C)(C)[C@@H]6CC[C@]54C)C2=C(C(C)C)C(=O)C3)cn1 | MT-2 |  |  | 92HT599 | <1 µM
CCC1=C(C(=O)OCC2CCCCC2)[C@H](c2ccc(OC(=O)C(C)(C)C)cc2)NC(=O)N1 | CEM |  |  |  | ≤1 µM
Cn1c2ccccc2c(=O)c2ccccc21 | OM-10.1 |  |  | IIIB | 4.9 µg/mL
CCC(=O)C1=C(CCC2CCCCCC2)NC(=O)N[C@H]1c1ccc(O)c(Cl)c1 | CEM |  |  |  | >5 µM
O=S(=O)([O-])OC[C@@H]1C[C@H](O)[C@@H](OS(=O)(=O)[O-])[C@H](O[C@H]2[C@H](O)[C@@H](O)[C@H](O[C@@H]3OC[C@@H](O[C@H]4[C@@H](OS(=O)(=O)[O-])[C@@H](OS(=O)(=O)[O-])[C@H](O)O[C@@H]4CO)[C@H](O)[C@H]3O)O[C@@H]2CO)O1 | PBMC |  |  |  | >20 µg/mL
COc1cc(Cl)ccc1C(=O)NC[C@H](O)[C@@]12CC[C@]3(C)[C@H](CC[C@@H]4[C@@]5(C)CC[C@H](OC(=O)[C@H]6C[C@@H](C(=O)O)C6(C)C)C(C)(C)[C@@H]5CC[C@]43C)C1=C(C(C)C)C(=O)C2 | MT-2 |  |  | 92HT599 | <1 µM
O=S(=O)(Nc1cccc2cccnc12)c1ccccc1 | H9 |  | pseudotyped | NL4-3 | >50 µM
CCC1=C(C(=O)OCC2CCCCC2)C(c2cc([N+](=O)[O-])ccc2Cl)NC(=O)N1 | CEM |  |  |  | >5 µM
CC(C)S(=O)(=O)N1CCN([C@@H](C)CN[C@]23CC[C@@H](C4(C)CC4)[C@@H]2[C@H]2CC[C@@H]4[C@@]5(C)CC[C@H](OC(=O)[C@H]6C[C@@H](C(=O)O)C6(C)C)C(C)(C)[C@@H]5CC[C@@]4(C)[C@]2(C)CC3)CC1 | MT-4 | V7A |  | NL4-3 | <0.05 µM
Cn1c2ccccc2c(=O)c2c(O)c(O)ccc21 | OM-10.1 |  |  | IIIB | >7.8 µg/mL
CC(C)C1=C2[C@H]3CC[C@@H]4[C@@]5(C)CC[C@H](OC(=O)[C@H]6C[C@@H](C(=O)O)C6(C)C)C(C)(C)[C@@H]5CC[C@@]4(C)[C@]3(C)CC[C@@]2([C@@H](O)CNC(=O)C2CCCC2)CC1=O | MT-2 |  |  | 92HT599 | <1 µM
COc1cccc2c1c(=O)c1ccccc1n2C | OM-10.1 |  |  | IIIB | 8.8 µg/mL
CC(C)C1=C2[C@H]3CC[C@@H]4[C@@]5(C)CC[C@H](OC(=O)[C@H]6C[C@@H](C(=O)O)C6(C)C)C(C)(C)[C@@H]5CC[C@@]4(C)[C@]3(C)CC[C@@]2(CC(=O)NCC(C)(C)NC(=O)c2ccc3ccccc3n2)CC1=O | MT-2 |  |  | 92HT599 | <1 µM
COc1ncc(OC)c2c(C(=O)C(=O)N3CCN(C(=O)c4ccccc4)CC3)c[nH]c12 | PM1 |  |  | BaL | 0.023 µM

For reference, 8 entries again:

compound,cell line,changes,setting,strain or isolate,result
Cn1c2ccccc2c(=O)c2ccccc21,OM-10.1,,,IIIB,4.9 µg/mL
CCCCCCCCCCCCCCCCCCOCCOP(=O)(O)CO[C@H](CO)Cn1cc(C)c(=O)[nH]c1=O,MT-2,,,LAI,>10 µM
CC(C)C1=C2[C@H]3CC[C@@H]4[C@@]5(C)CC[C@H](OC(=O)[C@H]6C[C@@H](C(=O)O)C6(C)C)C(C)(C)[C@@H]5CC[C@@]4(C)[C@]3(C)CC[C@@]2(NC(=O)C(C)(C)NC(=O)c2ccc(N3CCC(O)CC3)cc2)CC1=O,MT-2,,,92HT599,<0.003 µM
N.O=S(=O)(NCc1ccccc1)c1ccc(F)cc1F,H9,,pseudotyped,NL4-3,>20 µM
Cn1c2ccccc2c(=O)c2c(O)cccc21,U-937,,,IIIB,7 µg/mL
COc1cc2c(OC3OC(C)C(OC4OC(CO)C(O)C(O)C4O)C(O)C3OC(C)=O)c3c(c(-c4ccc5c(c4)OCO5)c2cc1OC)C(=O)OC3,PBMC,,,SF162,0.014 µM
CCOC(=O)c1cc(C(=O)c2ccc3ccccc3c2)n2ccc(C(=O)c3ccncc3)cc12,H9,,,,11 µM
CC(C)OC(=O)OCOP(=O)(CO[C@H](C)Cn1cnc2c(N)ncnc21)OCOC(=O)OC(C)C,C8166,V82F/184V,,RF,0.07534 µM